The record followed here is ChEMBL document CHEMBL1828605, “Synthesis, antiviral activity, cytotoxicity and cellular pharmacology of l-3'-azido-2',3'-dideoxypurine nucleosides” (Eur J Med Chem, 2011).

For this assay, the target named is Human immunodeficiency virus type 1 reverse transcriptase (Human immunodeficiency virus 1) (UniProt Q72547). The assay can be described thus: Ratio Kpol to Kd for wild type HIV 1 reverse transcriptase. The essentials: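 Pre-steady-state single-turnover incorporation by purified WT HIV-1 RT (200 nM, final), pre-incubated with 20 nM T/P substrate, then mixed with nucleotide at varying concentrations plus metal ions. Reaction at 37 °C in 50 mM Tris-HCl pH 7.5, 50 mM KCl, 10 mM MgCl₂. Aliquots quenched in gel loading buffer at 1-60 min. 20mer→21mer conversion quantified on gel. k_obs from burst fit, k_pol and K_d from hyperbolic fit, efficiency taken as k_pol/K_d.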

On to `Cc1cn([C@@H]2O[C@H](COP(=O)(O)OP(=O)(O)OP(=O)(O)O)[C@@H](O)[C@H]2O)c(=O)[nH]c1=O` [THYMIDINE_TRIPHOSPHATE], for which the Ratio was 231 µM⁻¹ min⁻¹. As for `[N-]=[N+]=N[C@@H]1C[C@@H](n2cnc3c(O)nc(N)nc32)O[C@H]1COP(=O)(O)OP(=O)(O)OP(=O)(O)O`, the Ratio turned out to be 0.458 µM⁻¹ min⁻¹. As for `Nc1nc2c(ncn2[C@H]2C[C@H](O)[C@@H](COP(=O)(O)OP(=O)(O)OP(=O)(O)O)O2)c(=O)[nH]1`, the figure is 108 µM⁻¹ min⁻¹.
